Measured values from several laboratories, pooled; numbers as filed in NIAID ChemDB.

Shared fields: host cell toxicity; cells: VERO; read by: MTT; read-out: CC50

CCn: concentration that lowers growth or viability of the cells by n%.

{"smiles": "Nc1ncnc2c1ncn2[C@H]1OC[C@@](F)(C=CP(=O)(O)O)[C@H]1F", "result": ">100 µM"}
{"smiles": "Cn1c2ccccc2c2cc(C=NNc3nc(-c4cccs4)cs3)ccc21", "result": "210.2 µM"}
{"smiles": "NC(=O)N=C1/C(=C/c2ccco2)CNC/C1=C\\c1ccco1", "result": "424 µg/mL"}
{"smiles": "O=C(Cc1nn(Cc2ccc(Br)cc2F)c(=O)c2ccccc12)Nc1ccccc1C(F)(F)F", "result": "117 µM"}
{"smiles": "COc1ccc(-c2nc(N)nc(N)n2)cc1OCc1ccc(F)cc1", "result": "439 µM"}
{"smiles": "O=C(Cc1nn(Cc2ccc(Br)cc2F)c(=O)c2ccccc12)N/N=C/c1ccc([N+](=O)[O-])cc1", "result": ">122.5 µM"}
{"smiles": "CSc1ccc(COc2ccc(-c3nc(N)nc(N)n3)cc2)cc1", "result": "457 µM"}
{"smiles": "CC[C@@H](C(C)C)[C@@H](O)[C@H](O)[C@@H](C)[C@H]1CC[C@H]2[C@@H]3CC(=O)[C@@]4(O)C[C@@H](OC(C)=O)CC[C@]4(C)[C@H]3CC[C@]12C", "result": "230 µM"}
{"smiles": "CCc1nc(N)nc(N)c1-c1ccc(Cl)cc1", "result": ">62.5 µg/mL"}
{"smiles": "Cc1cn([C@H]2C[C@H](N=[N+]=[N-])[C@@H](CO)O2)c(=O)[nH]c1=O", "result": "29 µM"}
{"smiles": "Nc1nc2c(ncn2[C@H]2OC[C@@](F)(CCP(=O)(O)O)[C@H]2F)c(=O)[nH]1", "result": ">100 µM"}
{"smiles": "Nc1ncnc2c1ncn2[C@@H]1OC[C@](CO)(CCP(=O)(O)O)[C@@H]1F", "result": ">100 µM"}
{"smiles": "CCn1cc(C(=O)O)c(=O)c2cc(F)c(N3CCN(C(=O)C4NC(=O)NC(=O)C4[N+](=O)[O-])CC3)cc21", "result": "123.9 µM"}
{"smiles": "CCO/N=C1/C(=O)N(CCOCCOCCOCCN2C(=O)C(=O)c3cc(F)ccc32)c2ccc(C)cc21", "result": "62.5 µg/mL"}
{"smiles": "O=S(=O)(OC1/C(=C/c2ccco2)CNC/C1=C\\c1ccco1)c1ccccc1", "result": "84 µg/mL"}
{"smiles": "CO[C@H]1/C=C/O[C@@]2(C)Oc3c(C)c(O)c4c(O)c(c(/C=N/N5CCN(C)CC5)c(O)c4c3C2=O)NC(=O)/C(C)=C\\C=C\\[C@H](C)[C@H](O)[C@@H](C)[C@@H](O)[C@@H](C)[C@H](OC(C)=O)[C@@H]1C", "result": "100 µg/mL"}
{"smiles": "CC[C@@H](C(C)C)[C@H](O)[C@@H](O)[C@@H](C)[C@H]1CC[C@H]2[C@@H]3CC(=O)C4C[C@@H](F)CC[C@]4(C)[C@H]3CC[C@]12C", "result": "43 µM"}
{"smiles": "O=C1NC(=O)C([N+](=O)[O-])C(C(=O)Nc2ccc(Br)cn2)N1", "result": "<174.5 µM"}
{"smiles": "CON=C1/C(=C/c2ccco2)CNC/C1=C\\c1ccco1", "result": "332 µg/mL"}
{"smiles": "C[C@@H]1CC[C@H]2[C@@H](C)C(=O)O[C@@H]3OC4(C)CC[C@@H]1[C@]32OO4", "result": ">9 µM"}
{"smiles": "Cn1c2ccccc2c2cc(C=NNc3nc(-c4cccc(Cl)c4)cs3)ccc21", "result": "259.9 µM"}
{"smiles": "CC(Oc1ccc(-c2nc(N)nc(N)n2)cc1)c1ccc(Br)cc1", "result": "282.2 µM"}
{"smiles": "COC(=O)[C@]1(Cc2ccc3c(c2)CCC(C)(C)O3)OC(=O)C(O)=C1c1ccc(O)cc1", "result": "100 µg/mL"}
{"smiles": "CC[C@@H](C(C)C)[C@@H](O)[C@H](O)[C@@H](C)[C@H]1CC[C@H]2[C@@H]3COC(=O)C4C[C@H](O)[C@H](O)C[C@]4(C)[C@H]3CC[C@]12C", "result": "427 µM"}
{"smiles": "Nc1ncnc2c1ncn2[C@@H]1OC[C@@](/C=C/P(=O)(O)O)(CO)[C@@H]1F", "result": ">100 µM"}
{"smiles": "COc1cccc(N2CCN(C(=O)Cc3nn(Cc4ccc(Br)cc4F)c(=O)c4ccccc34)CC2)c1", "result": ">111 µM"}
{"smiles": "O=C(Cc1nn(Cc2ccc(Br)cc2F)c(=O)c2ccccc12)N/N=C/c1ccc(Br)cc1", "result": ">114.9 µM"}
{"smiles": "O=C(O)c1cn(C2CC2)c2cc(N3CCNCC3)c(F)cc2c1=O", "result": ">189 µM"}
{"smiles": "CCC(Oc1ccc(-c2nc(N)nc(N)n2)cc1)c1ccccc1", "result": "324 µM"}
{"smiles": "CO[C@H]1/C=C/O[C@@]2(C)Oc3c(C)c(O)c4c(O)c(c(/C=N/N5CCN(C)CC5)c(O)c4c3C2=O)NC(=O)/C(C)=C\\C=C\\[C@H](C)[C@H](O)[C@@H](C)[C@@H](O)[C@@H](C)[C@H](OC(C)=O)[C@@H]1C", "result": "608 µM"}
{"smiles": "COc1cc(/C=C2\\CC/C(=C\\c3ccc(OCCCn4ccnc4C)c(OC)c3)C2=O)ccc1OCCCn1ccnc1C", "result": ">9 µM"}
{"smiles": "COc1cccc(N=C2/C(=C/c3ccco3)CNC/C2=C\\c2ccco2)c1OC", "result": "182 µg/mL"}
{"smiles": "COc1ccc(-c2csc(NN=Cc3ccc4c(c3)c3ccccc3n4C)n2)cc1OC", "result": "220.8 µM"}
{"smiles": "CN1C[C@H](c2ccccc2)[C@]2(CC3C=CC=CC3C2=O)[C@]12C(=O)c1cccc3cccc2c13", "result": ">62.5 µg/mL"}
{"smiles": "O=C(Cc1nn(Cc2ccc(Br)cc2F)c(=O)c2ccccc12)N/N=C/c1c(Cl)cccc1Cl", "result": ">117 µM"}
{"smiles": "Nc1ncnc2c1ncn2[C@H]1C=C(F)[C@@H](CO)S1", "result": ">100 µM"}
{"smiles": "COc1ccc(-c2cc3c(c(=O)o2)C[C@]2(O)[C@@]4(C)C(=O)C=CC(C)(C)[C@]4(O)CC[C@@]2(C)O3)cc1OC", "result": "100 µg/mL"}
{"smiles": "CCOc1c2ccccc2nc2oc3ccccc3c12", "result": "10.34 µg/mL"}
{"smiles": "O=[N+]([O-])c1ccc(NN=C2/C(=C/c3ccco3)CNC/C2=C\\c2ccco2)c([N+](=O)[O-])c1", "result": "394 µg/mL"}
{"smiles": "C/C(=N\\NC(=O)Cc1nn(Cc2ccc(Br)cc2F)c(=O)c2ccccc12)c1ccc(F)cc1", "result": "125.7 µM"}
{"smiles": "CCO/N=C1/C(=O)N(CCOCCOCCOCCn2c(O)c(N=O)c3ccccc32)c2ccc(C)cc21", "result": "500 µg/mL"}
{"smiles": "C/C(=N\\NC(=O)Cc1nn(Cc2ccc(Br)cc2F)c(=O)c2ccccc12)c1ccc(C)cc1", "result": ">126.7 µM"}
{"smiles": "NC(=S)N=C1/C(=C/c2ccco2)CNC/C1=C\\c1ccco1", "result": "500 µg/mL"}
{"smiles": "CCO/N=C1/C(=O)N(CCOCCOCCOCCN2C(=O)C(=O)c3ccccc32)c2ccc(C)cc21", "result": "125 µg/mL"}
{"smiles": "NNC(=O)N=C1/C(=C/c2ccco2)CNC/C1=C\\c1ccco1", "result": "406 µg/mL"}
{"smiles": "Nc1nc2c(ncn2[C@H]2OC[C@@](F)(C=CP(=O)(O)O)[C@H]2F)c(=O)[nH]1", "result": ">100 µM"}
{"smiles": "O=c1cc(N2CCN(Cc3ccccc3)CC2)sc2c([N+](=O)[O-])cc(C(F)(F)F)cc12", "result": ">64 µg/mL"}
{"smiles": "CO/N=C1/C(=O)N(CCn2cc(CN3CCN(c4cc5c(cc4F)c(=O)c(C(=O)O)cn5C4CC4)CC3)nn2)c2ccc(F)cc21", "result": "4.94 µM"}
{"smiles": "CO/N=C1/C(=O)N(CCOCCOCCOCCN2C(=O)C(=O)c3cc(F)ccc32)c2ccc(C)cc21", "result": "62.5 µg/mL"}
{"smiles": "CN1C[C@H](c2cccc3c2OCO3)[C@]2(CC3C=CC=CC3C2=O)[C@]12C(=O)c1cccc3cccc2c13", "result": ">62.5 µg/mL"}
{"smiles": "Cn1c2ccccc2c2cc(C=NNc3nc(-c4cc5ccccc5oc4=O)cs3)ccc21", "result": "399.2 µM"}
{"smiles": "O=C1/C(=C/c2ccc(OCCCN3CCOCC3)cc2)CCC/C1=C\\c1ccc(OCCCN2CCOCC2)cc1", "result": ">9 µM"}
{"smiles": "O=c1ccn([C@H]2C=C(F)[C@@H](CO)S2)c(=O)[nH]1", "result": ">100 µM"}
{"smiles": "CO[C@H]1/C=C/O[C@@]2(C)Oc3c(C)c(O)c4c(O)c(c(/C=N/N5CCN(C)CC5)c(O)c4c3C2=O)NC(=O)/C(C)=C\\C=C\\[C@H](C)[C@H](O)[C@@H](C)[C@@H](O)[C@@H](C)[C@H](OC(C)=O)[C@@H]1C", "result": ">75.94 µM"}
{"smiles": "CC[C@@H](C(C)C)[C@H](O)[C@@H](O)[C@@H](C)[C@H]1CC[C@H]2[C@@H]3CC(=O)[C@H]4C[C@@H](OC(C)=O)CC[C@]4(C)[C@H]3CC[C@]12C", "result": "226 µM"}
{"smiles": "O=C(Cc1nn(Cc2ccc(Br)cc2F)c(=O)c2ccccc12)Nc1ccc(Br)cc1", "result": ">115 µM"}
{"smiles": "Nc1ncnc2c1ncn2[C@@H]1C=C(F)[C@H](CO)S1", "result": ">100 µM"}
{"smiles": "Cn1c2ccccc2c2cc(C=NNc3nc(-c4ccccc4O)cs3)ccc21", "result": "440.8 µM"}
{"smiles": "O=C1C(=O)N(CCn2cc(CN3CCN(c4cc5c(cc4F)c(=O)c(C(=O)O)cn5C4CC4)CC3)nn2)c2ccc(F)cc21", "result": "41.45 µM"}
{"smiles": "OC1/C(=C/c2ccco2)CNC/C1=C\\c1ccco1", "result": "400 µg/mL"}
{"smiles": "COc1ccc2c3c([nH]c2c1)C(C)=NCC3", "result": "33.33 µg/mL"}
{"smiles": "O=C(Cc1nn(Cc2ccc(Br)cc2F)c(=O)c2ccccc12)N1CCN(C(=O)c2ccc3c(c2)OCO3)CC1", "result": "103 µM"}
{"smiles": "COc1ccc(COc2ccc(-c3nc(N)nc(N)n3)cc2OC)cc1", "result": "388 µM"}
{"smiles": "Fc1cc(Cl)ccc1N=C1/C(=C/c2ccco2)CNC/C1=C\\c1ccco1", "result": "446 µg/mL"}
{"smiles": "Nc1ccn([C@H]2C=C(F)[C@@H](CO)S2)c(=O)n1", "result": ">100 µM"}
{"smiles": "COc1cc(/C=C2\\CC/C(=C\\c3ccc(OCCn4ccnc4C)c(OC)c3)C2=O)ccc1OCCn1ccnc1C", "result": ">9 µM"}
{"smiles": "CCO/N=C1/C(=O)N(CCOCCOCCOCCN2C(=O)C(=O)c3cc(F)ccc32)c2ccc(F)cc21", "result": "125 µg/mL"}
{"smiles": "CCn1cc(C(=O)O)c(=O)c2cc(F)c(N3CC(C)N(C(=O)C4NC(=O)NC(=O)C4[N+](=O)[O-])C(C)C3)c(F)c21", "result": "<116.5 µM"}
{"smiles": "Cc1ccnc(NC(=O)Cc2nn(Cc3ccc(Br)cc3F)c(=O)c3ccccc23)c1", "result": "<130 µM"}
{"smiles": "CO[C@H]1/C=C/O[C@@]2(C)Oc3c(C)c(O)c4c(O)c(c(/C=N/N5CCN(C)CC5)c(O)c4c3C2=O)NC(=O)/C(C)=C\\C=C\\[C@H](C)[C@H](O)[C@@H](C)[C@@H](O)[C@@H](C)[C@H](OC(C)=O)[C@@H]1C", "result": "500 µg/mL"}

Rows are shuffled and stem from different studies.